For this assay, the target named is HIV-1 clade C Env 11-3.J3 (HIV-1 (clade C)).

As to “soluble CD4 (from UniProt P01730 26-396) (receptor)”, the IC50 of neutralisation of Env-pseudotyped virus by sCD4 in TZM-bl cells (luciferase); sCD4 interferes with the Env-CD4 interaction is > 25 µg/mL.

The record behind these values is PMC3351407.
